Assay results reported in article PMC4673825, “Active site coupling in Plasmodium falciparum GMP synthetase is triggered by domain rotation” (Nature Communications, 2015).

Assays:
[1] = tested on: O=c1[nH]c(=O)c2ncn([C@@H]3O[C@H](COP(=O)(O)O)[C@@H](O)[C@H]3O)c2[nH]1; assay: purified protein
[2] = tested on: NC(=O)CC[C@H](N)C(=O)O; assay: purified protein; conditions: 2 mM ATP, 150 μM XMP, 20 mM MgCl2, pH 8.5, 25 °C; pH 8.5; 25.0 °C
[3] = 2 mM ATP, 100 mM NH4Cl, 20 mM MgCl2, pH 8.5, 25 °C, NH4Cl-dependent, pH 8.5, 25.0 °C

Row | Substance | Km [1, 3] [µM] | kcat [1, 3] [s⁻¹] | kcat/Km [1, 3] [M⁻¹ s⁻¹] | Km [2] [µM] | kcat [2] [s⁻¹] | kcat/Km [2] [M⁻¹ s⁻¹] | Km ([1]; saturating ATP, activation of glutaminase activity) [µM]
1 | PfGMPS (Plasmodium falciparum 3D7; C89A) | 18 ± 1 | 1.5 | 83300 |  |  |  | 
2 | PfGMPS (Plasmodium falciparum 3D7; C113A/C89A) | 19 ± 1.9 | 1.68 | 88600 |  |  |  | 
3 | PfGMPS (Plasmodium falciparum 3D7; D172A) |  |  |  | 62200 ± 3300 | 0.607 | 10 | 
4 | PfGMPS (Plasmodium falciparum 3D7; D371A) |  |  |  |  |  |  | 0.20 ± 0.02
5 | PfGMPS (Plasmodium falciparum 3D7; Y212W) |  |  |  | 1010 ± 40 | 0.9 | 883 | 
